Laboratory results from US9403855B2 (priority 2010, dated 2016).

Test system: wild type (274H) neuraminidase of A/Hanoi/30408/2005 (H5N1) on 293T cells
Conditions: 274H:274Y=100:0; 10 nM ZB and excess OC at 300 nM

CC(=O)N[C@H]1[C@H]([C@H](OC(=O)NCc2cn(CCCCCNC(=O)CCCCC3SC[C@@H]4NC(=O)N[C@H]34)nn2)[C@H](O)CO)OC(C(=O)O)=C[C@@H]1NC(=N)N (stereo partly shown) [ZB]
percentage of ZB labeled cells (OC resistant ZB binding): 1.00%
